PubChem BioAssay AID504761, Drosophila RNAi Screening Center – 2011
Assay: 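Fly genes whose silencing reduces dengue virus type 2 infection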 (primary screen). System: D.Mel-2 cells from Drosophila. Knock-down reagent: long dsRNA against Drosophila genes. Challenge: infection with dengue virus type 2; dose and infection time not stated. Read-out: 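Per well on two replicate plates, imaging gave the percent of cells positive for viral envelope protein, ranked by infection, and a nuclear count of cells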. Reading the numbers: infection score: higher = more virus-infected cells. Active means: 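Very low infection ranking in both replicate wells (chance probability at most 0.065), then a retest showing infection dropped 1.5-fold or more at p below 0.05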. Calls: active = confirmed: knock-down lowers infection; inactive = not picked or not confirmed.
The screen tested about 22,000 reagents; this is a random part of those that have a named target and a result. Over the whole deposit, 116 (0.52%) got an active call. 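Calls depend on retest data that are not deposited; infection was ranked per plate without normalising between plates; the unit of the infection score is not given.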 A number with no mark means an inactive call. The numbers tell different reagents against one gene apart. Further read-outs or replicates are left out here. Not given: the amount of reagent, the time to read-out.

How did the screen score Cadps (GeneID 49968) #1?
infection score, replicate 1: 1.92

Which result is listed for Cadps (GeneID 49968) #2?
infection score, replicate 1: 14.6

Which result is listed for CG17163 (GeneID 3354988)?
infection score, replicate 1: 11.3

Which result is listed for CG9582 (GeneID 34230)?
infection score, replicate 1: 8.32

With Prp16 (GeneID 32373) #1, what does the deposit list?
infection score, replicate 1: 18.5

Which result is listed for Prp16 (GeneID 32373) #2?
infection score, replicate 1: 10.2

With CR18166 (GeneID 8673968) #1, what does the deposit list?
infection score, replicate 1: 0.23

What is on record for CR18166 (GeneID 8673968) #2?
infection score, replicate 1: 4.1

With CR18166 (GeneID 8673968) #3, what does the deposit list?
infection score, replicate 1: 2.06

Which result is listed for CG14565 (GeneID 40423) #1?
infection score, replicate 1: 3.52

With CG14565 (GeneID 40423) #2, how do the results read?
infection score, replicate 1: 21

For 14-3-3epsilon (GeneID 42186), what was measured?
infection score, replicate 1: 3.03

For CG31915 (GeneID 319025), what does the deposit list?
infection score, replicate 1: 2.32

What did the screen give for Sdhaf3 (GeneID 42004)?
infection score, replicate 1: 13

Not a retest: an excerpt of the list.
CR18166 (GeneID 8673968) #1: infection score, replicate 1 = 0.23
CR18166 (GeneID 8673968) #2: infection score, replicate 1 = 4.1
CR18166 (GeneID 8673968) #3: infection score, replicate 1 = 2.06

The listing continues.
With Ing3 (GeneID 32853) #1, what was measured?
infection score, replicate 1: 11.6

What is on record for Ing3 (GeneID 32853) #2?
infection score, replicate 1: 5.35

What did the screen give for CG5886 (GeneID 43125)?
infection score, replicate 1: 1.12

What is on record for Dpy-30L2 (GeneID 38480) #1?
infection score, replicate 1: 3.43

For Dpy-30L2 (GeneID 38480) #2, what was measured?
infection score, replicate 1: 2.59

For Sh (GeneID 32780) #1, what does the deposit list?
infection score, replicate 1: 0.34

What did the screen give for Sh (GeneID 32780) #2?
infection score, replicate 1: 1.23

With Sh (GeneID 32780) #3, what does the deposit list?
infection score, replicate 1: 12.3

For Sh (GeneID 32780) #4, how do the results read?
infection score, replicate 1: 8.34

Which result is listed for Sh (GeneID 32780) #5?
infection score, replicate 1: 4.38
